# A number of entries come with more than one value. They are shown here; other results are not. There may be further records. Results that share an entry do not match, cause unknown; some may be repeats, others may stem from another dose, organism or construct than stated.
# Tested on: Mtb K204
# Details: anti-TB activity of KAN against Mtb K204 with compound; KAN line = KAN alone
compound,measurement,value
CN(c1ccc2ccccc2c1)S(=O)(=O)c1ccc2[nH]c(=O)c(=O)[nH]c2c1 [Compound 46],K204 MICKAN,≤ 1.25 μg/mL and ≤1.25 μg/mL

# — US10208000B2, “Eis inhibitors” (priority 2015, dated 2019)
